A mixed list of measured activities; the numbers were collected in NIAID ChemDB.

All rows: target-level tests

a–b is a range or a potency band.

structure,measure,protein,organism,tested at,result
CNC(=O)c1c(-c2ccc(F)cc2)oc2cc(N(C)S(C)(=O)=O)c(OCc3cc(OC)cc(OC)c3)cc12,IC50,Nonstructural protein 5B,Hepatitis C virus,,≤0.5 µM
O=C(O)c1cc2nc(-c3cccc(Cl)c3)cc(-c3cccc(OCc4ccccc4)c3)n2n1,IC50,RNA-dependent RNA polymerase,Hepatitis C virus,,1–10 µM
COc1nc(NCCO)nc(Nc2ccc3[nH]ncc3c2)n1,inhibition,DNA polymerase,Hepatitis B virus,0.01 µg/mL,22%
O=C(O)c1ccc2c(c1)nc(-c1ccc3nc(-c4ccc(N5CCNCC5)cc4)ccc3c1)n2C1CCCCC1,inhibition,NS5B polymerase,Hepatitis C virus,100 µM,97.17%
CC[C@@H](C=O)NC(=O)[C@@H]1C[C@@H](OCc2ccc(C(F)(F)F)cc2)CN1C(=O)[C@@H](NC(=O)[C@@H](NC(=O)c1cnccn1)C(C)C)C(C)C,Ki,NS3 protease,Hepatitis C virus,,1–100 µM
CC(C)(NC(=O)c1ccc2c(c1)nc(-c1ccoc1)n2C1CCCCC1)C(=O)Nc1ccc(-c2csc(C(=O)O)n2)cc1,IC50,NS5B polymerase,Hepatitis C virus,,<0.5 µM
COc1nc(NCCN2CCOCC2)nc(Nc2ccc3[nH]ncc3c2)n1,IC50,DNA polymerase,Hepatitis B virus,,0.1–1 µg/mL
FC(F)(F)Oc1cccc(Oc2ccc(-c3cnc4c(-c5nn[nH]n5)cnn4c3C3CCCCC3)cc2)c1,IC50,RNA-dependent RNA polymerase,Hepatitis C virus,,1–10 µM
CC(C)(C)OC(=O)NCc1ccc(COC(=O)Nc2ccsc2-c2nc(C(=O)O)c(O)c(=O)[nH]2)cc1,IC50,HCV polymerase,Hepatitis C virus,,<25 µM
COCc1cc(=O)oc2cc(NC(=O)C3(NC(=O)c4ccc5c(c4)nc(-c4ccoc4)n5C4CCCCC4)CCCC3)ccc12,IC50,NS5B polymerase,Hepatitis C virus,,0.5–5 µM
O=C(O)c1nc(-c2sccc2NC(=O)C(NCc2cccc3cccnc23)c2ccccc2)[nH]c(=O)c1O,IC50,HCV polymerase,Hepatitis C virus,,<25 µM
COc1ccc(-c2nc3cc(C(=O)O)[nH]n3c(=O)c2-c2ccc(OC)cc2)cc1,IC50,RNA-dependent RNA polymerase,Hepatitis C virus,,>10 µM
CCNc1cc2oc(-c3ccc(F)cc3)c(C(=O)NC)c2cc1OCCCOCC,IC50,Nonstructural protein 5B,Hepatitis C virus,,≤0.5 µM
CCCC(=O)N(Cc1cccc(OC)c1)c1cc(-c2ccccc2)sc1C(=O)O,IC50,NS3 ATPase,Hepatitis C virus,,5–20 µM
COc1nc(Nc2ccc3cn[nH]c3c2)nc(N2CCC(O)CC2)n1,IC50,DNA polymerase,Hepatitis B virus,,>1 µg/mL
O=C(O)c1ccc2c(c1)nc(-c1ccc3nc(-c4ccnc5ccccc45)ccc3c1)n2C1CCCCC1,inhibition,NS5B polymerase,Hepatitis C virus,100 µM,102%
O=C(O)c1nc(-c2ccccc2NS(=O)(=O)c2ccccc2C(F)(F)F)[nH]c(=O)c1O,IC50,HCV polymerase,Hepatitis C virus,,<100 µM
O=C(O)[C@@H]1CCCN(C(=O)c2cnn3c(C4CCCCC4)c(-c4ccc(F)cc4F)cnc23)C1,IC50,RNA-dependent RNA polymerase,Hepatitis C virus,,>10 µM
O=C(O)c1ccc2c(c1)nc(-c1ccc3nc(-c4ccc(N5CCOCC5)cc4)ccc3c1)n2C1CCCCC1,inhibition,NS5B polymerase,Hepatitis C virus,100 µM,101%
CCCOc1ccc(-c2cnc3c(C(=O)O)cnn3c2C2CCCCC2)cc1,IC50,RNA-dependent RNA polymerase,Hepatitis C virus,,1–10 µM
O=C(O)/C=C/c1ccc(NC(=O)C(NC(=O)c2ccc3c(c2)nc(-c2ccoc2)n3C2CCCCC2)c2cccs2)cc1,IC50,NS5B polymerase,Hepatitis C virus,,0.5–5 µM
CC[C@@H](C=O)NC(=O)[C@@H]1C[C@@H](OCc2cccc(Oc3ccccc3)c2)CN1C(=O)[C@@H](NC(=O)[C@@H](NC(=O)c1cnccn1)C(C)C)C(C)C,Ki,NS3 protease,Hepatitis C virus,,1–100 µM
O=C(O)c1ccc2c(c1)nc(-c1ccc3nc(-c4cc(C(=O)N5CCCC5)ccc4-c4ccc(Cl)cc4)cnc3c1)n2C1CCCCC1,inhibition,NS5B polymerase,Hepatitis C virus,100 µM,101%
CN(C(=O)c1ccc(C(F)(F)F)c(F)c1)c1cc(-c2ccccc2)sc1C(=O)O,IC50,NS3 ATPase,Hepatitis C virus,,5–20 µM
O=C(Nc1cscc1-c1nc(C(=O)O)c(O)c(=O)[nH]1)NS(=O)(=O)c1ccc(F)cc1,IC50,HCV polymerase,Hepatitis C virus,,<25 µM
CCOC(=O)C1CCN(c2nc(Nc3ccc4[nH]ncc4c3)nc(OC)n2)CC1,inhibition,DNA polymerase,Hepatitis B virus,1 µg/mL,56%
CC(=O)Nc1ccc(-c2ccc3cc(-c4nc5cc(C(=O)O)ccc5n4C4CCCCC4)ccc3n2)cc1,inhibition,NS5B polymerase,Hepatitis C virus,33 µM,90.61%
CCOC(=O)C1=CN(N2CCN(c3nc(Nc4ccc5cn[nH]c5c4)nc(OC)n3)CC2)C(SC)N=C1,inhibition,DNA polymerase,Hepatitis B virus,0.01 µg/mL,4%
O=C(O)c1cc2nc(-c3ccc(F)cc3)cc(-c3ccc(Cl)c(Cl)c3)n2n1,IC50,RNA-dependent RNA polymerase,Hepatitis C virus,,1–10 µM
COc1nc(Nc2ccc3[nH]ncc3c2)nc(NN2CCOCC2)n1,inhibition,DNA polymerase,Hepatitis B virus,0.01 µg/mL,11%
COc1cccc(COc2ccc(-c3cnc4c(-c5nn[nH]n5)cnn4c3C3CCCCC3)cc2)c1,IC50,RNA-dependent RNA polymerase,Hepatitis C virus,,1–10 µM
CN1CCN(C(=O)c2ccc3c(c2)nc(-c2cc4ccc(-c5ccccc5-c5ccc(Cl)cc5)nc4cc2F)n3C2CCCCC2)CC1,inhibition,NS5B polymerase,Hepatitis C virus,33 µM,84.85%
CN(C(=O)c1ccc(F)cc1F)c1cc(-c2ccccc2)sc1C(=O)O,IC50,NS3 ATPase,Hepatitis C virus,,5–20 µM
O=C(Nc1ccccc1-c1nc(C(=O)O)c(O)c(=O)[nH]1)c1ccccc1,IC50,HCV polymerase,Hepatitis C virus,,<100 µM
CC[C@@H](C=O)NC(=O)[C@@H]1C[C@@H](OCc2ccccc2)CN1C(=O)[C@@H](NC(=O)C(C#N)=C1CCCCC1)C(C)C,Ki,NS3 protease,Hepatitis C virus,,1–100 µM
C[C@@H](NC(=O)c1ccc2c(c1)nc(-c1ccoc1)n2C1CCCCC1)C(=O)Nc1ccc2[nH]c(C(=O)O)cc2c1,IC50,NS5B polymerase,Hepatitis C virus,,<0.5 µM
O=C1COc2ccc(-c3ccc4cc(-c5nc6cc(C(=O)O)ccc6n5C5CCCCC5)ccc4n3)cc2N1,inhibition,NS5B polymerase,Hepatitis C virus,100 µM,101%
O=C(CNc1ccccc1)Nc1ccsc1-c1nc(C(=O)O)c(O)c(=O)[nH]1,IC50,HCV polymerase,Hepatitis C virus,,<25 µM
COc1cc2c(C(=O)NC3CC3)c(-c3ccc(F)cc3)oc2cc1-c1c(C)noc1C,IC50,Nonstructural protein 5B,Hepatitis C virus,,≤0.5 µM
O=C(O)/C=C/c1ccc(NC(=O)[C@H](CCO)NC(=O)c2ccc3c(c2)nc(-c2ccoc2)n3C2CCCCC2)cc1,IC50,NS5B polymerase,Hepatitis C virus,,0.5–5 µM
CCCCCc1ccc(CS(=O)(=O)Nc2cc(-c3ccccc3)sc2C(=O)O)cc1,IC50,NS3 ATPase,Hepatitis C virus,,5–20 µM
CNC(=O)c1c(-c2ccc(F)cc2)oc2cc(N3CCOCC3)c(OCc3cscn3)cc12,IC50,Nonstructural protein 5B,Hepatitis C virus,,≤0.5 µM
O=C(NC(CO)C(=O)O)c1ccc2c(c1)nc(-c1ccc3ncccc3c1)n2C1CCCCC1,inhibition,NS5B polymerase,Hepatitis C virus,33 µM,66.96%
CC[C@@H](C=O)NC(=O)[C@@H]1C[C@@H](OCc2cccc(C(F)(F)F)c2)CN1C(=O)[C@@H](NC(=O)[C@@H](NC(=O)c1cnccn1)C(C)C)C(C)C,Ki,NS3 protease,Hepatitis C virus,,1–100 µM
O=C(Nc1cccc(-c2nc(C(=O)O)c(O)c(=O)[nH]2)c1)Nc1cc(C(F)(F)F)cc(C(F)(F)F)c1,IC50,HCV polymerase,Hepatitis C virus,,<100 µM
Cc1ccc(C(=O)N(Cc2cccc(Cl)c2)c2cc(-c3ccccc3)sc2C(=O)O)cc1,IC50,NS3 ATPase,Hepatitis C virus,,<5 µM
C#CCn1c(C(=O)O)cc2cc(NC(=O)C3(NC(=O)c4ccc5c(c4)nc(-c4ccoc4)n5C4CCCCC4)CCCC3)ccc21,IC50,NS5B polymerase,Hepatitis C virus,,<0.5 µM
COc1nc(Nc2ccc3[nH]ncc3c2)nc(N2CCC(C(N)=O)CC2)n1,inhibition,Nonstructural protein 5B,Hepatitis C virus,0.1 µg/mL,37%

4 of the rows above, restated:

| structure | measure | protein | organism | tested at | result |
|---|---|---|---|---|---|
| O=C(O)c1ccc2c(c1)nc(-c1ccc3nc(-c4ccc(N5CCOCC5)cc4)ccc3c1)n2C1CCCCC1 | inhibition | NS5B polymerase | Hepatitis C virus | 100 µM | 101% |
| CC[C@@H](C=O)NC(=O)[C@@H]1C[C@@H](OCc2ccc(C(F)(F)F)cc2)CN1C(=O)[C@@H](NC(=O)[C@@H](NC(=O)c1cnccn1)C(C)C)C(C)C | Ki | NS3 protease | Hepatitis C virus |  | 1–100 µM |
| O=C(CNc1ccccc1)Nc1ccsc1-c1nc(C(=O)O)c(O)c(=O)[nH]1 | IC50 | HCV polymerase | Hepatitis C virus |  | <25 µM |
| O=C(Nc1ccccc1-c1nc(C(=O)O)c(O)c(=O)[nH]1)c1ccccc1 | IC50 | HCV polymerase | Hepatitis C virus |  | <100 µM |

Percent inhibition refers to the dose given; in toxicity tests it is the harm to the cells. ICn: concentration for n% inhibition. Lines come from different laboratories, so protocols vary. An empty or dashed field is not shown.